Measurements taken from PMC9321043, “Synthesis, Structure–Activity Relationships, and Parasitological Profiling of Brussonol Derivatives as New Plasmodium falciparum Inhibitors” (Pharmaceuticals, 2022).

What follows are compounds tested on HepG2 cells (assay: Cytotoxic test on immortalized cells, MTT). Conditions: SI = IC50^HepG2/IC50^Pf.
Format: cell-based, human
Method: The cytotoxic effects of brussonol and derivatives were evaluated against the human hepatocellular carcinoma cell line (HepG2). The cells were cultivated in an RPMI medium supplemented with 10% (v/v) fetal bovine serum and 25 µg/mL gentamicin. Conditions for the cultivation of these cells were 37 °C and 5% CO2, and every 2 days the supplemented medium was changed.
For experimental procedures, the cells were trypsinized and transferred to a 96-well plate at 30,000 cells per well (180 µL). The plate was incubated at 37 °C and 5% CO2 to allow cell adhesion. Next, 20 µL of serial dilutions of the compounds tested were added to the plate, with a range of concentrations tested from 400–6.25 µM. Cells without any compounds were used as a positive control for growing and the wells containing only medium were used as negative controls. The plate was incubated for 72 h at 37 °C and 5% CO2. After incubation, a microscope was used to determine the highest compound concentration to be used in the experiments (highest concentration without precipitation). A colorimetric assay was used to evaluate cytotoxicity. This assay is based on the metabolic cell activity in the presence of 3-(4,5-dimethylthiazol-2-yl)-2,5-diphenyltetrazolium bromide (MTT). Shortly after incubation, 20 µL of a solution of MTT at 5 mg/mL (solubilized in phosphate buffer) is added to each well. The plate is incubated for 3 to 4 h at 37 °C to allow MTT cleavage in living cells. Then, the supernatant is removed, and 100 µL of dimethylsulfoxide (DMSO) is added to solubilize the purple formazan crystals. The absorbance, which is proportional to the number of viable cells, was determined using a SpectraMAX Plus 384 plate reader (Molecular Devices Corp., Sunnyvale, CA) (λ = 570 nm). All compounds described here were purchased from Sigma-Aldrich (verificar local).
After the IC50 against the parasite and the human cell line is determined, it is possible to calculate the SI. It is calculated as the formula below:SI = IC50^HepG2/IC50^Pf.
For our reference, compounds with SI values higher than 10 are considered well tolerated by the cellular model used, and they are considered for further evaluation.

Row | SMILES | SI
1 | COc1c2c(c(OC)c(C(C)C)c1OC)[C@@H]1C[C@H]3C(C)(C)CCC[C@@]3(C2)O1 (racemic) [Compound 8] | > 30 and 34
2 | COc1c2c(c(-c3ccccc3)c(C(C)C)c1OC)[C@@H]1C[C@H]3C(C)(C)CCC[C@@]3(C2)O1 (racemic) [Compound 11] | >2
3 | COc1c2c(c(-c3ccccc3)c(C(C)C)c1OC)[C@@H]1C[C@H]3CCCC[C@@]3(C2)O1 (racemic) [Compound 15] | >8
4 | COc1c(C(C)C)cc2c(c1OC)CC13CCCC(C)(C)C1CC2O3 (centres unmarked) [Compound 7] | >37
5 | COc1c2c(c(Br)c(C(C)C)c1OC)C1CC3CCCCC3(C2)O1 (centres unmarked) [Compound 14] | >4

“And” between values parts separate entries of the source, which are not always exact repeats. Identical values can stand only once.
